Target: Lassa virus L protein with internal StrepII-tag after residue 407 (Lassa virus strain Bantou 289)
Assay: SEC

Q: Which stoichiometry N does the source give for “Lassa virus L protein with internal StrepII-tag after residue 407 (enzyme)” here?
A: 2

— paper PMC6527160, “Biochemical characterization of the Lassa virus L protein” (2019)
